Results from patent US9079977B2, “Anti-trypanosomal peptides and uses thereof” (priority 2009, dated 2015).

Assay: Parallax analysis of tryptophan depth in brominated PC liposomes
Settings: for F1/F2 ± S.D. (tryptophan fluorescence with shallow / deep quencher): 500 nM peptide, 37° C., 22 hours

Sequence	F1/F2 ± S.D. (tryptophan fluorescence with shallow / deep quencher)	other results
FHQIGAALLYFYGIILNSIW (derivative of SHP-3 having a tryptophan substitution at position 20) [SHP-3ΔW20, SHP-3 tryptophan variant, tryptophan at position 20]	1.1620 ± 0.3194	–
FHQIGAALLYFYWIILNSIY (derivative of SHP-3 having a tryptophan substitution at position 13) [SHP-3ΔW13, SHP-3 tryptophan variant, tryptophan at position 13]	0.9912 ± 0.0787	–
FHQIWAALLYFYGIILNSIY (amino acid sequence of small hydrophobic peptide -3 (SHP-3)) [Small hydrophobic peptide 3, derived from an apolipoprotein]	0.9202 ± 0.1260	tryptophan depth from membrane interface, position 1 (N-terminal tryptophan variant): inefficiently quenched; tryptophan depth below the interface, position 5 (SHP-3 native tryptophan): approximately 1.6 Å; tryptophan depth below the interface, position 13 (SHP-3 tryptophan variant): approximately 4.7 Å; tryptophan depth below the interface, C-terminal tryptophan (SHP-3 tryptophan variant, position 20): approximately 11.2 Å
SDLGAVISLLLGGRQLFW (derivative of SHP-1 having a tryptophan substitution at position 18) [SHP-1ΔW18, SHP-1 tryptophan variant, tryptophan at position 18]	0.9285 ± 0.1557	–
SDLGAVIWLLLGGRQLFA (derivative of SHP-1 having a tryptophan substitution at position 8) [SHP-1ΔW8, SHP-1 tryptophan variant, tryptophan at position 8]	0.9767 ± 0.0717	–
WDLGAVISLLLGGRQLFA (derivative of SHP-1 having a tryptophan substitution at position 1) [SHP-1ΔW1, SHP-1 tryptophan variant, tryptophan at position 1]	0.8897 ± 0.1112	–
